Data: publication PMC10012172, “Chimeric Peptidomimetic Antibiotic Efficiently Neutralizes Lipopolysaccharides (LPS) and Bacteria-Induced Activation of RAW Macrophages” (ACS Infectious Diseases, 2023)

tested on: E. coli O111:B4 LPS; assay: Isothermal titration calorimetry (ITC) of LPS binding; settings: 30 μM peptide, 200 μM LPS in 50% PBS, 37 °C, representative of two measurements
Experimental: Figure 6 (A) Binding profile of LPS and the peptides using ITC. Binding signatures (ΔG, ΔH. and −TΔS) plotted for binding events of LPS with peptides. (B) Spectra of the interaction between LPS and peptides. Murepavadin, PMB, MHM, PMBN, and CPA (30 μM) were titrated against 200 μM E. coli O111:B4 LPS, and heat rates were recorded. Shown is a representative of two measurements.
ITC measurements were performed in a low volume NanoITC (TA Instruments-Waters LLC, New Castle, DE). Two hundred micromolar LPS (from E. coli O111:B4) was prepared in 50% PBS. Peptides of 30 μM concentration were prepared in identical buffer. Three hundred microliters of the peptide solution was added to the chamber (chamber volume is 169 μL, so the rest of the volume flows out and rests around the chamber), and 50 μL of LPS was added to the syringe. At 37 °C, 2 μL of LPS solution was injected into the chamber every 300 s, except the first injection, which consists of 0.96 μL. The experiments were performed at 37 °C while stirring at 300 rpm. The data was analyzed with the NanoAnalyze Software (TA Instruments, Asse, Belgium).

First: CC(C)C[C@@H]1NC(=O)[C@@H](Cc2ccccc2)NC(=O)[C@H](CCN)NC(=O)[C@@H](NC(=O)[C@H](CCN)NC(=O)[C@@H](NC(=O)[C@H](CCN)NC(=O)CC[C@@H]2NC(=O)[C@H](CCN)NC(=O)[C@H](Cc3ccc(O)cc3)NC(=O)[C@H]([C@@H](C)O)NC(=O)[C@H](C(C)C)NC(=O)[C@@H]3CCCN3C(=O)[C@@H](C)NC(=O)[C@H](CO)NC(=O)[C@H](C)NC(=O)[C@H](C(C)(C)C)NC(=O)[C@H](CCO)NC(=O)[C@H](Cc3c[nH]c4ccccc34)NC(=O)[C@H](CCO)NC(=O)[C@@H](CCN)NC2=O)[C@@H](C)O)CCNC(=O)[C@H]([C@@H](C)O)NC(=O)[C@H](CCN)NC(=O)[C@H](CCN)NC1=O [CPA] (I: cyclo([dDab][hSer]W[hSer][Tle]AS[dA]PVTY[Dab]E) / II: [Dab]T[Dab][Dab][Dab][dF]L[Dab][Dab]T; amide I:14-II:N (inferred); lactam II:4-II:C (inferred); ring closure inferred)
Second: CC(C)[C@@H]1NC(=O)[C@@H]2CCCN2C(=O)[C@@H](C)NC(=O)[C@H](CO)NC(=O)[C@H](C)NC(=O)[C@H](C(C)(C)C)NC(=O)[C@H](CCO)NC(=O)[C@H](Cc2c[nH]c3ccccc23)NC(=O)[C@H](CCO)NC(=O)[C@@H](CCN)NC(=O)[C@H](CCC(=O)O)NC(=O)[C@H](CCN)NC(=O)[C@H](Cc2ccc(O)cc2)NC(=O)[C@H]([C@@H](C)O)NC1=O [MHM] (cyclo(VTY[Dab]E[dDab][hSer]W[hSer][Tle]AS[dA]P))
The “n (binding stoichiometry) of peptide–LPS binding” value (“n (binding stoichiometry)” for short) of the first is higher: 0.5 for the first, 0.3 for the second.

`CC(C)C[C@@H]1NC(=O)[C@@H](Cc2ccccc2)NC(=O)[C@H](CCN)NC(=O)[C@@H](NC(=O)[C@H](CCN)NC(=O)[C@@H](N)[C@@H](C)O)CCNC(=O)[C@H]([C@@H](C)O)NC(=O)[C@H](CCN)NC(=O)[C@H](CCN)NC1=O` [PMBN, polymyxin B nonapeptide] (H-T[Dab][Dab][Dab][dF]L[Dab][Dab]T; lactam 3-C (inferred); N-terminus assumed) and `CC[C@H](C)[C@@H]1NC(=O)[C@H](Cc2c[nH]c3ccccc23)NC(=O)[C@H]([C@@H](C)O)NC(=O)[C@@H]2CCCN2C(=O)[C@H]2CCCN2C(=O)[C@H](CO)NC(=O)[C@H](C)NC(=O)[C@H](CCN)NC(=O)[C@H](CCN)NC(=O)[C@H](Cc2c[nH]c3ccccc23)NC(=O)[C@H](CCN)NC(=O)[C@@H](CCN)NC(=O)[C@H](CCCN)NC(=O)[C@H](CCN)NC1=O` [murepavadin] (cyclo(TWI[Dab][Orn][dDab][Dab]W[Dab][Dab]AS[dP]P)) are the same in “n (binding stoichiometry)” value: 0.4 for the first, 0.4 for the second.

polymyxin B [PMB] was tested, and the “n (binding stoichiometry)” value was 0.6.

Where a SMILES comes first, the peptide text is derived from it. Bridges are numbered along the chain shown (N, C = ends). Roman numbers before positions name the chains, in order. [ ]: non-standard residue; d: D form. Tle = CC(C)(C)[C@H](N)C(=O)O; dDab = NCC[C@@H](N)C(=O)O; hSer = N[C@@H](CCO)C(=O)O; Orn = NCCC[C@H](N)C(=O)O; Dab = NCC[C@H](N)C(=O)O
